Measured values from several laboratories, pooled; numbers as filed in NIAID ChemDB.

Common to all: growth or infection tests; organism: Candida albicans

Blank or dashed fields: not listed here.

structure | strain | read by | endpoint | result
Cc1ccc2occ(/C=N/NC(=O)c3cc(O)c(O)c(O)c3)c(=O)c2c1 | PN-10 | - | MIC | 400 µg/mL
c1ccc(C(Cn2ccnc2)OCc2cccc3ccccc23)cc1 | CA7 | - | MIC | 128 µg/mL
COc1ccc(C(=O)/C=C/c2ccncc2)cc1 | - | - | MIC | 15.5 µg/mL
Nc1ccc(NC(=O)c2ccc(F)cc2)c(O)c1 | ATCC 10231 | - | MIC | 62.5 µg/mL
O=C(Nc1ccc(F)cc1)c1ccccc1O | ATCC 44859 | - | MIC | 62.5 µM
O=Cc1coc2ccc(Cl)cc2c1=O | PN-10 | - | MIC | 10–50 µg/mL
Cc1ccc(/C(=N/O)c2oc3ccccc3c2C)cc1 | - | - | MIC | 4 µg/mL
Cc1ccc(C(C)C)cc1O | - | - | MIC90 | 125 µg/mL
Cc1c(Sc2ccccc2)[n+](=O)c2cc(Cl)ccc2n1[O-] | Clinical isolate 20 | - | MIC | 15.6 µg/mL
O=C(NCc1ccccn1)c1ccc2nc(-c3ccccc3Cl)[nH]c2c1 | - | - | MIC | 50 µg/mL
CC(=O)O/N=C(\c1ccc(Cl)cc1)c1oc2ccccc2c1C | - | - | MIC | 16 µg/mL
CCCCCCCCCCCCCSc1cc(C(N)=S)ccn1 | 176 | - | MIC | 200 µg/mL
O[C@](Cn1cncn1)(Cn1cnc(/C=C/c2ccc(OCC(F)(F)C(F)F)cc2)n1)c1ccc(F)cc1F | 50 strains (fluconazole-susceptible) | - | MIC90 | 0.06 µg/mL
CCCCCCCCCC[n+]1ccc(/C=C/C(=O)c2cccc(OC)c2)cc1 | - | - | MIC | <7.5 µg/mL
CO[C@H]1[C@@H](OC(=O)OCc2ccccc2)[C@H](O)[C@H](OCC23C4C=C(C(C)C)C2(C(=O)O)C(C=O)(C4)[C@@H]2CC[C@@H](C)[C@H]23)O[C@@H]1C | 2402 | - | MIC | 8 µg/mL
CCCCOc1ccccc1N1CCN(CCc2nnnn2C(C)C(O)(Cn2cncn2)c2ccc(F)cc2F)CC1 | - | - | MIC | 1 µg/mL
CS/C(N)=N/NC(=O)c1ccccc1 | - | - | MIC | >100 µg/mL
CCC(C)n1ncn(-c2ccc(N3CCN(c4ccc(OC[C@H]5CO[C@](Cn6cncn6)(c6ccc(Cl)cc6Cl)O5)cc4)CC3)cc2)c1=O | SGY-243 | - | MIC | 0.004 µg/mL
CCCCCCCCCCOc1ccc(CON2C(N)=NC(N)=NC2(C)C)cc1 | - | - | MIC | 15 µg/mL
COc1ccc(NC(=O)c2ncccc2O)cc1 | ATCC 44859 | - | MIC | 125 µM
COC(=O)c1ccc2c(c1)nc(-c1ccc(OCc3ccccc3)c(OCc3ccccc3)c1)n2Cc1ccccc1 | - | - | MIC | 100 µg/mL
CCCCCCC#CCCCCCC#CC(=O)O | ATCC 60913 | - | MIC | 2235 µM
CCc1ccc(C(=O)Nc2ccc([N+](=O)[O-])cc2O)cc1 | ATCC 10231 | - | MIC | 62.5 µg/mL
Clc1ccc(C(Cn2ccnc2)OCc2csc3c(Cl)cccc23)c(Cl)c1 | 15 strains | - | MFC | 16 µg/mL
C[C@H](n1nnnc1CCN1CCN(c2ccc(F)cc2)CC1)[C@](O)(Cn1cncn1)c1ccc(F)cc1F | - | - | MIC | 2 µg/mL
CCNC1Oc2ccc(Cl)cc2C(=O)/C1=C/Nc1ccc2nc(Sc3ccc([N+](=O)[O-])cc3[N+](=O)[O-])sc2c1 | PN-10 | - | MIC | 50–250 µg/mL
CCc1ccc(C(=O)Nc2cc([N+](=O)[O-])ccc2O)cc1 | ATCC 10231 | - | MIC | 7.8 µg/mL
CCCCCCCCCSc1cc(C(N)=S)ccn1 | 176 | - | MIC | >200 µg/mL
COc1ccc(/C(=N\OC(=O)c2ccccc2)c2oc3ccccc3c2C)cc1 | - | - | MIC | >512 µg/mL
COc1cc(C(=O)NNC(N)=S)cc(OC)c1OC | - | - | MIC | >100 µg/mL
Cc1ccc(CC(=O)Nc2ccc([N+](=O)[O-])cc2O)cc1 | Isolates | - | MIC | 250 µg/mL
C[C@H](n1nnnc1CCN1CCN(c2ccc([N+](=O)[O-])cc2)CC1)[C@](O)(Cn1cncn1)c1ccc(F)cc1F | - | - | MIC | 2 µg/mL
O=C(Nc1ccc([N+](=O)[O-])cc1O)c1ccc(Br)cc1 | ATCC 10231 | - | MIC | 7.8 µg/mL
Cc1c(/C(=N/OCc2ccccc2)c2ccc(Cl)cc2)oc2ccccc12 | - | - | MIC | 8 µg/mL
Cc1c(Cl)[n+](=O)c2cc(Cl)ccc2n1[O-] | Clinical isolate 4 | - | MIC | 15.6 µg/mL
Cc1ccc(C(Cn2ccnc2)OCc2ccc(-c3ccccc3)cc2)cc1 | CA12 | - | MIC | 128 µg/mL
Cc1ccc(C(C)C)cc1O | M1 | - | MLC | 0.32 µg/mL
Clc1ccc(C(Cn2ccnc2)OCc2ccc(-c3ccccc3)cc2)cc1 | 5M | - | MIC | >128 µg/mL
O[C@](Cn1cncn1)(Cn1cnc(/C=C/c2ccc(OCC(F)(F)C(F)F)cc2)n1)c1ccc(F)cc1F | - | - | Mean MIC50 | 0.11 µg/mL
O=C(Nc1ccccc1)c1ncccc1O | ATCC 44859 | - | MIC | 250 µM
Nc1ccc(S(=O)(=O)Nc2nnc(S(N)(=O)=O)s2)cc1 | C316 | - | MIC | >100 µg/mL
C[C@H](n1nnnc1CCN1CCN(c2ccccc2Cl)CC1)[C@](O)(Cn1cncn1)c1ccc(F)cc1F | - | - | MIC | 4 µg/mL
Cc1ccc(C(Cn2ccnc2)OCc2cccc3ccccc23)cc1 | CDCB385 | - | MIC | 128 µg/mL
O=C(Nc1ccc([N+](=O)[O-])cc1)c1ccccc1O | ATCC 44859 | - | MIC | 31.25 µM
CCc1ccc(C(=O)Nc2cc(N)ccc2O)cc1 | ATCC 10231 | - | MIC | 15.6 µg/mL
CC(CCCCCCCCCCCON1C(N)=NC(N)=NC12CCCCC2)c1ccccc1 | - | - | MIC | 1.9 µg/mL
CSc1cc(C(N)=S)ccn1 | 176 | - | MIC | 200 µg/mL
C(=C\c1ccccc1)/COC(Cn1ccnc1)c1ccccc1 | CDCB385 | - | MIC | 128 µg/mL
O=[n+]1c(Sc2ccccc2)c(CBr)n([O-])c2ccccc21 | Clinical isolate 17 | - | MIC | 15.6 µg/mL
CCCCCCSc1cc(C(N)=S)ccn1 | 3a | - | MFC | 50 µg/mL
COC(=O)c1ccc2nc(-c3cccs3)[nH]c2c1 | - | - | MIC | 50 µg/mL
NCc1ccc(S(N)(=O)=O)cc1 | C316 | - | MIC | >100 µg/mL
Clc1ccc(C(Cn2ccnc2)OC/C=C/c2ccccc2)c(Cl)c1 | CA12 | - | MIC | 8 µg/mL
CCCCCOc1ccc(-c2ccc(-c3ccc(C(=O)N[C@H]4C[C@@H](O)[C@@H](OCCN(C)CCCC)NC(=O)[C@@H]5[C@@H](O)[C@@H](C)CN5C(=O)[C@H]([C@H](C)O)NC(=O)[C@H]([C@H](O)[C@@H](O)c5ccc(O)cc5)NC(=O)[C@@H]5C[C@@H](O)CN5C(=O)[C@H]([C@H](C)O)NC4=O)cc3)cc2)cc1 | - | - | MIC | 0.625 µg/mL
OC(Cn1cncn1)(Cn1nnnc1CCN1CCN(c2ccccc2Cl)CC1)c1ccc(F)cc1F | V-01-191A-261 (resistant) | - | MIC | 4 µg/mL
O=C(Cc1ccc(F)cc1)Nc1cc([N+](=O)[O-])ccc1O | ATCC 10231 | - | MIC | 31.25 µg/mL
Cc1c(S(=O)(=O)c2ccccc2)[n+](=O)c2ccccc2n1[O-] | Clinical isolate 10 | - | MIC | 31.25 µg/mL
Clc1ccc(C(Cn2ccnc2)OCc2cccc3ccccc23)cc1 | CA6 | - | MIC | >128 µg/mL
Cc1ccc(CON2C(N)=NC(N)=NC23CCC(C)CC3)c2ccccc12 | - | - | MIC | 62.5 µg/mL
COc1ccccc1C(=O)/C=C/c1ccccn1 | - | - | MIC | 7.1 µg/mL
COc1ccc(C(=O)N/N=C(\N)SCc2cccc(Cl)c2)cc1 | - | - | MIC | >100 µg/mL
COc1ccc(/C(=N\OCc2ccccc2)c2oc3ccccc3c2C)cc1 | - | - | MIC | >512 µg/mL
CC1CCN(C(=O)c2ccc3nc(-c4cccs4)[nH]c3c2)CC1 | - | - | MIC | 50 µg/mL
Clc1ccc(C(Cn2ccnc2)OC/C=C/c2ccccc2)cc1 | CA12 | - | MIC | >128 µg/mL
CCCCCCCCCC[n+]1ccc(/C=C/C(=O)c2ccccc2OC)cc1 | - | - | MIC | <6.8 µg/mL
C[C@@H]1CCC2(OC1)OC1CC3C4C[C@H](OC5O[C@@H](CO)[C@H](O)[C@@H](O)[C@@H]5O)[C@H]5C[C@@H](OC6O[C@H](CO)[C@@H](O)[C@H](O)[C@H]6O)CC[C@]5(C)C4CC[C@]3(C)C1[C@@H]2C | ATCC 90028 | - | EC50 | 10 µg/mL
Cc1ccc(/C(=N\OCc2ccccc2)c2oc3ccccc3c2C)cc1 | - | - | MIC | >512 µg/mL
Oc1ccc2c(c1)CCc1ccc(O)c(c1)Oc1ccc(cc1)CCc1cccc(O)c1O2 | BWP17-DPP3-GFP | broth dilution | MIC80 | 16 µg/mL
Cc1cc2occ(C=O)c(=O)c2cc1C | PN-10 | - | MIC | 10–50 µg/mL
CCCCCCCC[n+]1cccc(/C=C/C(=O)c2ccc(OC)cc2)c1 | - | - | MIC | <7.26 µg/mL
NC(=S)NNC(=O)c1ccc(Cl)cc1Cl | - | - | MIC | >100 µg/mL
Cc1c(/C(=N\O)c2ccccc2)oc2ccccc12 | - | - | MIC | 4 µg/mL
N/C(=N\NC(=O)c1ccc(Cl)cc1)SCc1cccc(Cl)c1 | - | - | MIC | >100 µg/mL
CCCCCCCCCCCCC#CCCC#CC(=O)O | ATCC 14053 | - | MIC | 20 µM
O=C(Nc1ccc(F)cc1)c1ncccc1O | ATCC 44859 | - | MIC | 62.5 µM
CCCCCOc1ccc(-c2ccc(-c3ccc(C(=O)N[C@H]4C[C@@H](O)[C@@H](OCCCCCCN)NC(=O)[C@@H]5[C@@H](O)[C@@H](C)CN5C(=O)[C@H]([C@H](C)O)NC(=O)[C@H]([C@H](O)[C@@H](O)c5ccc(O)cc5)NC(=O)[C@@H]5C[C@@H](O)CN5C(=O)[C@H]([C@H](C)O)NC4=O)cc3)cc2)cc1 | - | - | MIC | 0.312 µg/mL

Two numbers with a dash give a range or band. Neighbouring rows are from separate reports. MIC50, MIC90 and the like: level of inhibition, or share of isolates inhibited. ECn is the concentration giving n% inhibition of infection, replication or growth.